Our source for the IC50, CC50 and EC50 values is patent US20090060872A1, “PHOSPHADIAZINE HCV […]” (published 2009).

Sequences of proteins named here, by UniProt entry; tags and fusion partners are left off. Residues count along the entry.
UniProt O92972, 2420-3010 limits assumed: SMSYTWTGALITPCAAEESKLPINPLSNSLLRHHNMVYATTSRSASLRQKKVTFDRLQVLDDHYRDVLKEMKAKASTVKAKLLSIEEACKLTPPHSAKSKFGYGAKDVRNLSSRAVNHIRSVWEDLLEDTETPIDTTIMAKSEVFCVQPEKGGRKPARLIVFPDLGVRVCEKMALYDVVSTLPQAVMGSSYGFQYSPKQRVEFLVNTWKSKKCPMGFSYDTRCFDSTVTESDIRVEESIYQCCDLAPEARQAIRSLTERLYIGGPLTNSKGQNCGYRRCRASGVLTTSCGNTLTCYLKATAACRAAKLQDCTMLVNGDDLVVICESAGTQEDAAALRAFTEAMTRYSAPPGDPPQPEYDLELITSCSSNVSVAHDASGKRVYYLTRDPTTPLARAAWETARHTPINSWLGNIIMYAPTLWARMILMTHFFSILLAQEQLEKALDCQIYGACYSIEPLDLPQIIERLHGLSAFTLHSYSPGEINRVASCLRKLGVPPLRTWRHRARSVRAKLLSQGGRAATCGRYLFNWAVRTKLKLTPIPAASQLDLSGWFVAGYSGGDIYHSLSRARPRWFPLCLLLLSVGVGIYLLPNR

Structures are written as SMILES. Some results are limits rather than exact numbers.

The target of series [1] is HCV genotype 1b polymerase (strain J4) (Hepatitis C virus genotype 1b, UniProt O92972). The series is described as follows: HCV polymerase assay. The conditions noted are these: 50 nM HCV genotype 1b polymerase, BrUTP incorporation ELISA, 60 min at 35°. A general note: In an ELISA, binding on a coated surface is turned into a signal by an enzyme label.
The subject of series [2] is Huh-7 cells containing HCV Con1 subgenomic replicon (GS4.1 cells). Nature of the series: Cytotoxicity (CC50) reported with HCV replicon assay. The conditions noted are these: CC50 method not described. On the technique in general: A replicon is a self-replicating genome or part of one, used to study replication in cells.
The test system of series [3] is HCV Con1 subgenomic replicon in Huh-7 cells (GS4.1 cells). Nature of the series: HCV replicon assay (NS4A ELISA). The conditions noted are these: 72 hr, NS4A protein ELISA.

Broadly, the IC50 is the point on the concentration scale where inhibition reaches its midpoint. One may read the CC50 as the concentration at which the toxic effect on the cells reaches its halfway point. A low value points to harm at low concentration. What is called EC50 is the midpoint of the concentration-response curve. Low values mean an effect from little substance, high ones a need for much substance. For `CC(C)(C)CCn1c(=O)c(C2=NP(=O)(O)c3cc(NS(C)(=O)=O)ccc3N2)c(O)n1C(C)(C)C`, in series [1], the IC50 is less than 0.1 µM. In addition, the CC50 in series [2] is more than 10 µM. The EC50 in series [3] lay within 0.1 to 10 µM.

Compound `CC(C)(C)CCn1[nH]c(O)c(C2=NP(=O)(O)c3cc(NS(C)(=O)=O)ccc3N2)c1=O` gave an IC50 in series [1] of 0.1 to 10 µM. This compound also registered a CC50 in series [2] of more than 10 µM. Moreover, the EC50 in series [3] is more than 10 µM.

For the compound `COP1(=O)N=C(c2c(O)n(C(C)(C)C)n(CCC(C)(C)C)c2=O)Nc2ccc(NS(C)(=O)=O)cc21` (stereo not drawn), in series [1], the IC50 is less than 0.1 µM. Further, the CC50 in series [2] is more than 10 µM. Further, the EC50 in series [3] fell in the range of 0.1 to 10 µM.
